In the series the test system is Hantaan (HTNV) (strain 76–118). Format: cell-based, Hantaan virus.

Experimental findings from article PMC7019903 (Viruses, 2020) are described below.

Each structure is given as a SMILES string.

`COc1cc(C(=O)Nc2ccc(-n3nc4cc(Cl)c(Cl)cc4n3)cc2)cc(OC)c1OC` [2j]: the “fold more potent than RBV (HTNV EC50)” value was “ten-fold”. As for `CCCNC(=O)Nc1ccc(-n2nc3cc(Cl)c(Cl)cc3n2)cc1` [2l], the “fold more potent than RBV (HTNV EC50)” value is recorded as “ten-fold”. As to `O=C(Nc1ccc(-n2nc3cc(Cl)c(Cl)cc3n2)cc1)NC1CCCCC1` [2n], the “fold more potent than ETAR (HTNV EC50)” value turned out to be 2 fold, the “fold more potent than Favipiravir (HTNV EC50)” value amounted to 37 fold and the “fold more potent than RBV (HTNV EC50)” value was “ten-fold”.
